Measured values from several laboratories, pooled; numbers as filed in NIAID ChemDB.

Shared fields: tests in culture; organism: Mycobacterium tuberculosis

Blank or dashed fields: not listed here. Percent inhibition refers to the dose given; in toxicity tests it is the harm to the cells. ECn is the concentration giving n% inhibition of infection, replication or growth. A number after MIC or MFC names an inhibition level or a share of isolates. Lines come from different laboratories, so protocols vary. MIC bound comes from a single tested concentration.

compound | tested at | cell line | endpoint | changes | strain | method | conditions | value
c1ccc2[nH]c(-c3ccnc4ccccc34)nc2c1 |  |  | MIC |  | H37Rv | radiometric |  | >500 µM
COC12OCCN(C)C1=CC(=O)C1N=NCC12 | 12.5 µg/mL |  | inhibition |  | H37Rv | BACTEC |  | 0%
CCCCOC(=O)c1cn(-c2cccnn2)nn1 | 6.25 µg/mL |  | inhibition |  | H37Rv |  |  | 20%
O=C(O)c1ccc(NS(=O)(=O)c2ccc(NC3=CC(=O)c4ccccc4C3=O)cc2)cc1 |  |  | MIC |  |  |  |  | 0.5 µg/mL
COc1ccc(-c2nc3ccc(C)cc3[nH]2)cc1OC |  |  | MIC |  | H37Rv | radiometric |  | >500 µM
c1ccc(Oc2cccc(-c3cc(-c4ccccc4)no3)c2)cc1 | 1 µg/mL |  | inhibition |  | H37Rv |  |  | 100%
CN(C)c1ncnc2c1cnn2COC[C@@H](O)CO |  |  | EC50 |  | H37Rv | BACTEC |  | >12.5 µg/mL
O=C(c1ccccc1)N1N=C(c2ccccn2)CC1c1cccc(Oc2ccccc2)c1 | 1 µg/mL |  | inhibition |  | H37Rv |  |  | 100%
N#Cc1cnc(C(N)=O)c(Nc2cc(C(F)(F)F)cc(C(F)(F)F)c2)n1 |  |  | MIC |  | H37Rv |  |  | >100 µg/mL
COc1ccc(-c2nc3ccc(Cl)cc3[nH]2)cc1OC |  |  | MIC |  | H37Rv | radiometric |  | >500 µM
O=C1CC(SC(=S)N2CCCCC2)C(=O)N1c1ccccc1 |  |  | MIC |  | ETA-R |  |  | 6.4 µg/mL
CCCOC1=NOC2(CCN(C(=O)CCC(F)(F)F)CC2)C1 |  | THP-1 | EC50 |  | H37Rv | fluorescence |  | <0.5 µM
Clc1ccc(-c2nc3ccccc3[nH]2)c(Cl)c1 |  |  | MIC |  | H37Rv | radiometric |  | >500 µM
Cc1nc(C(=O)OC2CC2)c(N)c2c1C(=O)N(Cc1ccccc1)C2=O |  |  | MIC90 | Ala317Thr | H37Rv-MA | resazurin / visual reading |  | >10 µM
CN1CCN(CCN2CCN(CCCN3c4ccccc4Sc4ccc(Cl)cc43)CC2)C1=O |  |  | MIC bound |  | H37Rv | BACTEC |  | >12.5 µg/mL
COc1ccc(C2=C/C(=C/c3cc4cc(C)ccc4nc3Cl)C(=O)O2)cc1 |  |  | EC50 |  | H37Rv | resazurin |  | >100 µg/mL
NC(=O)NCCCN1c2ccccc2Sc2ccccc21 | 25 µg/mL |  | inhibition |  | H37Rv | agar |  | 10%
COC(=O)c1ccc(NS(=O)(=O)c2ccc(NC3=CC(=O)c4ccccc4C3=O)cc2)cc1 |  |  | MIC |  |  |  |  | 2 µg/mL
C[C@H](c1ccccc1)N1C[C@@]2(ON=C(c3ccc(Cl)cc3)[C@H]2c2ccccc2Cl)C2(ON=C(c3ccc(Cl)cc3)O2)[C@]2(C1)ON=C(c1ccc(Cl)cc1)[C@H]2c1ccccc1Cl |  |  | MIC |  |  |  |  | 3.44 µM
CCC1=NOC2(CCN(C(=O)CCC(F)(F)F)CC2)C1 |  | THP-1 | EC50 |  | H37Rv | fluorescence |  | <0.1 µM
CCCCCOC(=O)c1cn(-c2ccccn2)nn1 |  |  | MIC |  | H37Rv |  |  | >6.25 µg/mL
COc1ccc2cc1-c1cc(ccc1O)C[C@H]1c3cc4c(cc3CCN1C)Oc1c(OC)cc3c(c1O4)[C@H](C2)N(C)CC3 | 12.5 µg/mL |  | inhibition |  | H37Rv | BACTEC |  | 99%
COc1ccc(C2SCC(=O)N2C(=O)NCCCN2c3ccccc3Sc3ccccc32)cc1 | 25 µg/mL |  | inhibition |  | H37Rv | agar |  | 30%
C[C@H](c1ccccc1)N1C/C(=C\c2ccccc2Br)[C@@]2(ON=C(c3ccc(Cl)cc3)O2)[C@@]2(C1)ON=C(c1ccc(Cl)cc1)[C@@H]2c1ccccc1Br |  |  | MIC |  | H37Rv |  |  | 7.4 µM
N#Cc1cnc(C(N)=O)c(Nc2cccc(Br)c2)n1 |  |  | MIC |  | H37Rv |  |  | >100 µg/mL
CC(C)c1ccc(C2=NO[C@@]3(O2)/C(=C\c2ccc(Cl)cc2Cl)CN([C@H](C)c2ccccc2)CC32ON=C(c3ccc(C(C)C)cc3)[C@H]2c2ccc(Cl)cc2Cl)cc1 |  |  | MIC |  | H37Rv |  |  | 7.44 µM
Cc1ccc(Nc2nc(C#N)cnc2C(N)=O)cc1[N+](=O)[O-] |  |  | MIC |  | H37Rv |  |  | 25 µg/mL
COc1cc2c3cc1Oc1c(O)c(OC)cc4c1C(Cc1ccc(cc1)Oc1cc(ccc1O)CC3N(C)CC2)N(C)CC4 | 12.8 µg/mL |  | inhibition |  | H37Rv | BACTEC |  | 35%
NC(=S)NNS(=O)(=O)c1ccc(N)cc1 |  |  | MIC |  |  |  |  | 1 µg/mL
COc1ccc(/C=C2/SC(c3ccc(OC)cc3)N(C(=O)NCCCN3c4ccccc4Sc4ccccc43)C2=O)cc1 | 50 µg/mL |  | inhibition |  | H37Rv | agar |  | 60%
CC(=O)NC[C@H]1CN(c2ccc(N3CCSCC3)c(F)c2)C(=O)O1 |  |  | MIC |  | 91-2225 |  |  | 0.5 µg/mL
COc1ccc(Cn2c(-c3ccc(OC)c(OC)c3)nc3ccccc32)cc1OC |  |  | MIC |  | H37Rv | radiometric |  | >500 µM
O=[N+]([O-])c1cn2c(n1)OC[C@@H](OCc1ccc(/C=C/c3ccc(F)cc3)cc1)C2 |  |  | MIC90 |  |  | low oxygen |  | 22 µM
C[C@@H]1CCC([C@@H](C)C(=O)OCCO)[C@]23OO[C@](C)(CCC12)O3 |  |  | MIC |  | H37Rv | agar |  | 3.12 µg/mL
COc1cccc(Nc2nc(C#N)cnc2C(N)=O)c1 |  |  | MIC |  | H37Rv |  |  | >100 µg/mL
Cc1ccc2nc(Cl)c(/C=C3/C=C(c4ccc(Cl)cc4)OC3=O)cc2c1 |  |  | EC50 |  | H37Rv | resazurin |  | >100 µg/mL
CCN(CC)CCNc1c(OC)cc(C)c2sc3ccccc3c(=O)c12.O=C(O)/C=C/C(=O)O |  |  | MIC |  | H37Rv | BACTEC |  | 12.5 µg/mL
O=[N+]([O-])c1cn2c(n1)OC[C@@H](OCc1ccc(Oc3ccc(OC(F)(F)F)cc3)cc1)C2 |  |  | MIC90 |  |  | resazurin |  | 0.03 µM
CCOP(=O)(OCC)/C(=C/NC(=S)c1ccncc1)C(=O)OC |  |  | MIC bound |  | H37Rv | BACTEC |  | >12.5 µg/mL
COC1=NOC2(CCN(C(=O)CCC(F)(F)F)CC2)C1 |  | THP-1 | EC50 |  | H37Rv | fluorescence |  | <0.05 µM
CO[C@H]1/C=C/O[C@@]2(C)Oc3c(C)c(O)c4c(=O)c(c5oc6cc(N7CCN(CC(C)C)CC7)cc(=O)c6nc5c4c3=C2O)NC(=O)/C(C)=C\C=C\[C@H](C)[C@H](O)[C@@H](C)[C@@H](O)[C@@H](C)[C@H](OC(C)=O)[C@@H]1C |  |  | MIC50 |  | 23 strains (rifampicin-resistant) |  |  | 1.56 µg/mL
CNc1ncnc2c1cnn2COC[C@@H](O)CO | 12.5 µg/mL |  | inhibition |  | H37Rv | BACTEC |  | 0%
COC(=O)c1cn(-c2ccc(-c3ccccc3)nn2)nn1 | 6.25 µg/mL |  | inhibition |  | H37Rv |  |  | 99%
N#Cc1cnc(C(N)=O)c(Nc2ccc(Cl)cc2)n1 |  |  | MIC |  | H37Rv |  |  | >100 µg/mL
Nc1nc2nc3c(nc2c(=O)[nH]1)CCCC3 | 12.5 µg/mL |  | inhibition |  | H37Rv | BACTEC |  | -5%
C[C@H](c1ccccc1)N1C/C(=C\c2ccc(Cl)cc2Cl)[C@@]2(ON=C(c3ccc(Cl)cc3)O2)[C@@]2(C1)ON=C(c1ccc(Cl)cc1)[C@@H]2c1ccc(Cl)cc1Cl |  |  | MIC |  | MDR-TB |  |  | 0.48 µM
C[C@H]1COc2c(N3CCN(C)CC3)c(F)cc3c(=O)c(C(=O)O)cn1c23 |  |  | MIC50 |  | 22 strains (rifampicin-susceptible) |  |  | 0.39 µg/mL
Cc1cc(=O)oc2cc(OCc3nnc(NC(=O)c4cccc(Br)c4)o3)ccc12 |  |  | EC50 |  | H37Rv | resazurin |  | >100 µg/mL
O=[N+]([O-])c1cn2c(n1)OC[C@@H](OCc1ccc(C#Cc3ccc(C(F)(F)F)cn3)nc1)C2 |  |  | MIC90 |  |  | low oxygen |  | 2.7 µM
O=C(/N=C/c1ccccc1Br)NCCCN1c2ccccc2Sc2ccccc21 | 50 µg/mL |  | inhibition |  | H37Rv | agar |  | 52%
NNC(=O)CNc1ccc2ccccc2c1 |  |  | EC50 |  | H37Rv |  | 21 d | <1 µg/mL
CCc1ccc(C2=C/C(=C/c3cc4cc(OC)ccc4nc3Cl)C(=O)O2)cc1 |  |  | EC50 |  | H37Rv | resazurin |  | >100 µg/mL
C[C@H](c1ccccc1)N1C/C(=C/c2ccccc2)[C@]2(ON=C(c3ccc(Cl)cc3)O2)C2(C1)ON=C(c1ccc(Cl)cc1)[C@H]2c1ccccc1 |  |  | MIC |  | H37Rv |  |  | 9.1 µM
CCOC1=NOC2(CCN(C(=O)CCC(F)(F)F)CC2)C1 |  | THP-1 | EC50 |  | H37Rv | fluorescence |  | <0.05 µM
CNc1ncnc2c1cnn2Cc1cn(COC[C@@H](O)CO)nn1 |  |  | EC50 |  | H37Rv | BACTEC |  | >12.5 µg/mL
CCOC(=O)C(C(=NNC(=O)OC)C(=O)Nc1ccc(C(C)=O)cc1)c1cnc2ccccc2n1 | 6.25 µg/mL |  | inhibition |  | H37Rv | resazurin |  | 10%
COC(=O)c1cn(-c2nccs2)nn1 | 6.25 µg/mL |  | inhibition |  | H37Rv |  |  | 1%
O=C(N/N=C/C=C/c1ccccc1)c1ccco1 |  |  | MIC |  | H37Rv | BACTEC |  | ≥12.5 µg/mL
Cc1ccc([C@H]2C(c3ccc(Cl)cc3)=NO[C@@]23CN([C@H](C)c2ccccc2)C/C(=C\c2cccc(C)c2)[C@@]32ON=C(c3ccc(Cl)cc3)O2)cc1 |  |  | MIC |  | H37Rv |  |  | 8.75 µM
COc1cccc(/C=C2/SC(c3cccc(OC)c3)N(C(=O)NCCCN3c4ccccc4Sc4ccccc43)C2=O)c1 | 50 µg/mL |  | inhibition |  | H37Rv | agar |  | 63%
CC(=O)O[C@H]1C(=O)[C@]2(C)[C@@H](OC(C)=O)C[C@H]3OC[C@@]3(OC(C)=O)[C@H]2[C@H](OC(=O)c2ccccc2)[C@]2(O)C[C@H](OC(=O)[C@H](OC(C)=O)[C@@H](NC(=O)c3ccccc3)c3ccccc3)C(C)=C1C2(C)C |  |  | MIC |  | EMB-R |  |  | >12.5 µg/mL
CSc1ncnc2c1cnn2COC[C@@H](O)CO | 12.5 µg/mL |  | inhibition |  | H37Rv | BACTEC |  | 0%
O=C(Nc1ccc(Cl)cc1)Nc1nnc2nc(CC(=O)c3ccccc3)c(=O)[nH]n12 |  |  | MIC bound |  | H37Rv | BACTEC |  | >12.5 µg/mL
O=C1C=C(Nc2ccc(S(=O)(=O)Nc3ccc(S(=O)(=O)c4ccc(NC5=CC(=O)c6ccccc6C5=O)cc4)cc3)cc2)C(=O)c2ccccc21 |  |  | MIC |  |  |  |  | 2 µg/mL
Nc1nc(-c2ccc(Cl)cc2)c(N=Nc2ccc(Br)cc2)s1 | 12.5 µg/mL |  | inhibition |  | H37Rv | BACTEC |  | 96%
Cc1noc(-c2nc(C)c3c(c2N)C(=O)N(Cc2cccc(OC(F)(F)F)c2)C3=O)n1 |  |  | MIC90 | deltaCydKO | H37Rv-MA | resazurin / visual reading |  | <0.019 µM
NNC(=O)C[n+]1ccccc1 |  |  | MIC bound |  | H37Rv | BACTEC |  | >12.5 µg/mL
CCOC(=O)c1cn(-c2cc(C)ccn2)nn1 |  |  | MIC |  | H37Rv |  |  | >6.25 µg/mL
CC(C)CC1N=C(NN=C(CCl)CCl)SP1(=O)NNc1ncccn1 |  |  | MIC bound |  | H37Rv | BACTEC |  | >12.5 µg/mL
O=[N+]([O-])c1cn2c(n1)OC[C@@H](OCc1ccc(Oc3ccc(C(F)(F)F)cc3)nc1)C2 |  |  | MIC90 |  |  | low oxygen |  | 3.5 µM
CCCCCNC(=O)c1csc(-c2csc(CCNC(C)=O)n2)n1 | 12.8 µg/mL |  | inhibition |  | H37Rv | BACTEC |  | 27%
OC[C@@H](O)COCn1cc(Cn2ncc3c(SCc4ccccc4)ncnc32)nn1 | 12.5 µg/mL |  | inhibition |  | H37Rv | BACTEC |  | 0%
N#Cc1c(N2CCN(c3ccc([N+](=O)[O-])cc3)CC2)[n+](=O)c2ccc(Cl)cc2n1[O-] |  |  | MIC bound |  | H37Rv | resazurin |  | <6.25 µg/mL
Nc1ncnc2c1cnn2COC[C@@H](O)CO |  |  | EC50 |  | H37Rv | BACTEC |  | >12.5 µg/mL
Cc1[nH]n(-c2ccccc2)c(=O)c1N=Nc1cccc(C(F)(F)F)c1 | 12.8 µg/mL |  | inhibition |  | H37Rv | BACTEC |  | -15%
O=C1OC(c2ccc(Cl)cc2)=C/C1=C/c1cc2ccccc2nc1Cl |  |  | EC50 |  | H37Rv | resazurin |  | >100 µg/mL
Cc1ncc([N+](=O)[O-])n1CCNC(=O)CCCn1cnc([N+](=O)[O-])n1 | 6.25 µg/mL |  | inhibition |  | H37Rv | resazurin |  | 7%
O=C1OC(c2ccccc2)=C/C1=C/c1cc2cc(Cl)ccc2nc1Cl |  |  | EC50 |  | H37Rv | resazurin |  | >100 µg/mL
CC1SC2=NC3=C(c4ccccc4C3=O)C(c3ccc(Br)cc3)N2C1=O |  |  | MIC bound |  | H37Rv | BACTEC |  | >12.5 µg/mL
C#CCn1ncc2c(Cc3ccccc3)ncnc21 |  |  | EC50 |  | H37Rv | BACTEC |  | <12.5 µg/mL

A second listing of 4 rows from above:

CN1CCN(CCN2CCN(CCCN3c4ccccc4Sc4ccc(Cl)cc43)CC2)C1=O ; endpoint: MIC bound ; strain: H37Rv ; method: BACTEC ; value: >12.5 µg/mL
COc1ccc(-c2nc3ccc(Cl)cc3[nH]2)cc1OC ; endpoint: MIC ; strain: H37Rv ; method: radiometric ; value: >500 µM
O=[N+]([O-])c1cn2c(n1)OC[C@@H](OCc1ccc(Oc3ccc(C(F)(F)F)cc3)nc1)C2 ; endpoint: MIC90 ; method: low oxygen ; value: 3.5 µM
Nc1ncnc2c1cnn2COC[C@@H](O)CO ; endpoint: EC50 ; strain: H37Rv ; method: BACTEC ; value: >12.5 µg/mL